Data published in patent publication US20250002954A1, “Novel Compound, Use Thereof, and Method for Producing Same, and Compound-Containing Composition, Method for Producing 4-Trehalosamine, and Microorganism” (Microbial Chemistry Research Foundation, priority 2021, published 2025).

Tested on: 12 kinds of microorganisms
Test: Assimilation by 12 kinds of microorganisms (proliferation in culture fluids free of carbon source)
Format: cell-based
Details: 0.4% (PA 0.1%) in culture fluids free of carbon source, 5 days, A620

Row | SMILES | proliferation of microorganisms (assimilation)
1 | N[C@H]1[C@H](O)[C@@H](O)[C@@H](O[C@H]2O[C@H](CO)[C@@H](O)[C@H](O)[C@H]2O)O[C@@H]1CO [4-trehalosamine] | activated proliferation was not observed with any of the 12 kinds of microorganisms
2 | OC[C@H]1O[C@H](O[C@H]2O[C@H](CO)[C@@H](O)[C@H](O)[C@H]2O)[C@H](O)[C@@H](O)[C@@H]1O [trehalose, reference compound] | activated proliferation was observed with 6 kinds of bacteria
